According to PMC9797896 (Medicinal Chemistry Research, 2022):

Tested on: SARS-CoV-2 (Omicron variant, B.1.1.529/BA.2 sublineage)
Format: cell-based

O=c1[nH]cnc2c([C@@H]3N[C@H](CO)[C@@H](O)[C@H]3O)c[nH]c12 [Forodesine, forodesine]
selectivity index (SI): > 142.9

COc1nc(N)nc2c1ncn2[C@@H]1O[C@H](CO)[C@@H](O)[C@@H]1O [Nelarabine, nelarabine]
100% CPE Inhibitory Concentration (CPEIC100): 4.14 ± 0.14 µM
